PubChem BioAssay AID624099 – ICCB-Longwood – 2012
Aim: 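Knock-downs relieving repression by E2 of an HPV18 LCR luciferase reporter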 (primary screen). Cells: human C33A cervical carcinoma cells (HPV-negative) stably expressing BPV1 E2 and an HPV18 LCR luciferase reporter. Knock-down reagent: siRNA pool against human genes, 40 nM. Duration: 72 h. Detection: 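Per-well luciferase luminescence, z-scored on each plate against the plate mean and SD with control wells left out, then averaged across three replicate plates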. Direction: mean z-score and z-score: higher = stronger reporter signal, weaker E2 silencing. Rule for the call: 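Mean z ≥ 2 together with z ≥ 2 in two or more of the three replicates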.
The whole screen tested about 21,000 reagents; shown is a random part of them. Of all reagents, 497 (2.4%) got an active call. 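Higher z means weaker E2 silencing; only reporter increases were scored, and knock-downs that hurt cell survival may mask genuine repressor factors.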 Unmarked entries are inactive.

no.	Target gene	mean z-score	z-score, replicate A	z-score, replicate B	z-score, replicate C
1	LOC100287740 (retired record)	-0.35	-0.5	-0.23	-0.33
2	ZFYVE26 (zinc finger FYVE-type containing 26)	-0.75	-0.82	-0.71	-0.71
3	ARCN1 (archain 1 coat protein complex I subunit delta)	-1.49	-1.61	-1.56	-1.29
4	TMEM258 (transmembrane protein 258)	0.22	0.24	0.4	0.03
5	TTC39A (tetratricopeptide repeat domain 39A)	1.29	1.24	1.64	0.99
6	NBAS (NBAS subunit of NRZ tethering complex)	1.95	2.04	1.6	2.2
7	LCA5 (lebercilin LCA5)	-1.39	-1.46	-1.5	-1.21
8	BUD23 (BUD23 rRNA methyltransferase and ribosome maturation factor)	0.36	1.13	-0.07	0.03
9	ACTRT1 (actin related protein T1)	-0.66	-0.56	-0.54	-0.88
10	DDC (dopa decarboxylase)	-0.25	-0.4	-0.13	-0.22
11	EPSTI1 (epithelial stromal interaction 1)	1.27	0.55	1.6	1.64
12	PRODH2 (proline dehydrogenase 2)	-0.84	-0.56	-0.78	-1.18
13	LDHB (lactate dehydrogenase B)	1.1	1.24	0.94	1.11
14	NOL4 (nucleolar protein 4)	-0.51	-0.58	-0.4	-0.54
15	UCN3 (urocortin 3)	0.12	0.24	0.11	0
16	TTC38 (tetratricopeptide repeat domain 38)	0.2	0.13	-0.12	0.6
17	TMEM63A (transmembrane protein 63A)	0.85	0.83	0.66	1.06
18	RPL29P31 (ribosomal protein L29 pseudogene 31)	-0.08	0.11	-0.5	0.14
19	XRCC2 (X-ray repair cross complementing 2)	-0.33	0.01	-0.2	-0.81
20	GSTA4 (glutathione S-transferase alpha 4)	0.21	-0.07	0.34	0.35
21	KRT4 (keratin 4)	0.72	0.66	0.88	0.6
22	CYP4F2 (cytochrome P450 family 4 subfamily F member 2)	0.41	0.59	0.5	0.15
23	SSX6P (SSX family member 6, pseudogene)	-0.08	-0.04	-0.2	0
24	CPA2 (carboxypeptidase A2)	-3.47	-3.44	-3.43	-3.54
25	APOD (apolipoprotein D)	0.11	-0.06	-0.18	0.58
26	DAPK3 (death associated protein kinase 3)	0.59	0.55	0.63	0.58
27	KANSL1 (KAT8 regulatory NSL complex subunit 1)	1.14	1.18	1.23	1.03
28	SPATA45 (spermatogenesis associated 45)	2.17 (active)	1.54	2.52	2.46
29	MXRA5 (matrix remodeling associated 5)	-0.72	-0.54	-0.86	-0.76
30	CALML3 (calmodulin like 3)	-0.67	-0.61	-0.53	-0.88
31	MISP3 (MISP family member 3)	-1.68	-2.04	-1.7	-1.31
32	YARS2 (tyrosyl-tRNA synthetase 2)	-0.27	-0.22	-0.23	-0.37
33	LOC388530 (retired record)	1.6	1.68	1.63	1.48
34	KCNJ4 (potassium inwardly rectifying channel subfamily J member 4)	0.09	-0.06	0.3	0.04
35	ALPG (alkaline phosphatase, germ cell)	-0.02	-0.13	0.05	0.03
36	DOK3 (docking protein 3)	0.44	-0.35	1.56	0.13
37	ANXA2R (annexin A2 receptor)	-0.6	-0.41	-0.6	-0.81
38	ANKRD37 (ankyrin repeat domain 37)	0.63	0.9	0.43	0.57
39	RNASEH1 (ribonuclease H1)	0.06	0.32	0	-0.15
40	IGFBP7 (insulin like growth factor binding protein 7)	-1.11	-0.47	-1.82	-1.05
41	GPA33 (glycoprotein A33)	0.29	0.42	0.27	0.18
42	TNP2 (transition protein 2)	-0.73	-0.64	-0.5	-1.06
43	EIF2AK1 (eukaryotic translation initiation factor 2 alpha kinase 1)	-0.27	0.07	-0.38	-0.51
44	ARMC1 (armadillo repeat containing 1)	-0.45	-0.31	-0.29	-0.74
45	SLC39A11	-0.32	-0.06	-0.74	-0.17
46	ENKD1 (enkurin domain containing 1)	-0.17	0.03	-0.03	-0.52
47	ISLR2 (immunoglobulin superfamily containing leucine rich repeat 2)	-1.58	-1.54	-1.45	-1.76
48	TNP1 (transition protein 1)	1.14	1.16	1.15	1.1
49	IL2RG (interleukin 2 receptor subunit gamma)	-0.57	-0.73	-0.5	-0.47
50	DCBLD1 (discoidin, CUB and LCCL domain containing 1)	0.07	-0.35	0.06	0.51
51	MUC3A (mucin 3A, cell surface associated)	1.3	1.03	1.05	1.83
52	OR2F1 (olfactory receptor family 2 subfamily F member 1)	-0.23	-0.37	0.08	-0.4
53	EMG1 (EMG1 N1-specific pseudouridine methyltransferase)	0.02	0	0.05	-0.01
54	ACTL11P (actin like 11, pseudogene)	-2.04	-2.06	-2.38	-1.68
55	H2AC7 (H2A clustered histone 7)	-0.21	-0.17	-0.17	-0.3
56	SYNC (syncoilin, intermediate filament protein)	-0.76	-0.27	-1.06	-0.96
57	LOC388790 (retired record)	-1.02	-1.41	-0.76	-0.9

10 successive entries already listed, quoted:
no.	Target gene	mean z-score	z-score, replicate A	z-score, replicate B	z-score, replicate C
12	PRODH2 (proline dehydrogenase 2)	-0.84	-0.56	-0.78	-1.18
13	LDHB (lactate dehydrogenase B)	1.1	1.24	0.94	1.11
14	NOL4 (nucleolar protein 4)	-0.51	-0.58	-0.4	-0.54
15	UCN3 (urocortin 3)	0.12	0.24	0.11	0
16	TTC38 (tetratricopeptide repeat domain 38)	0.2	0.13	-0.12	0.6
17	TMEM63A (transmembrane protein 63A)	0.85	0.83	0.66	1.06
18	RPL29P31 (ribosomal protein L29 pseudogene 31)	-0.08	0.11	-0.5	0.14
19	XRCC2 (X-ray repair cross complementing 2)	-0.33	0.01	-0.2	-0.81
20	GSTA4 (glutathione S-transferase alpha 4)	0.21	-0.07	0.34	0.35
21	KRT4 (keratin 4)	0.72	0.66	0.88	0.6
